Compound potency records, mixed from different reports. Data source: NIAID ChemDB in PubChem.

Common to all: target-level tests; organism: HIV-1; target: Reverse transcriptase; measure: fold resistance

Rows are shuffled and stem from different studies. Fold resistance has wild type as its base. Blank or dashed fields: not listed here.

| smiles | strain or isolate | mutations | value |
|---|---|---|---|
| CN(C)P(=O)(c1ccccc1)c1c(C(N)=O)[nH]c2ccc(Cl)cc12 | - | RT-K103N | >3.57 |
| Cc1c(Cc2c(F)cccc2F)nc(Sc2ccc(F)cc2F)[nH]c1=O | - | Y181I | >13.3 |
| CNc1ccc(Cl)cc1S(=O)(=O)c1ccccc1[N+](=O)[O-] | - | RT-Y181I | 2 |
| COc1ccccc1N1CCN(C(=O)c2cc3cc4c(cc3[nH]2)OCO4)CC1 | IIIB | RT-Y181C | >3 |
| CC(C)=CCOc1cc(NC(=S)c2ccoc2C)ccc1Cl | - | RT-K103N | 6.97 |
| Cc1occc1C(=S)Nc1ccc(Cl)c(/C=N/OC(C)(C)C)c1 | - | RT-M184V | 1.02 |
| Cc1c(Cc2c(Cl)cccc2Cl)nc(Sc2ccc(C#N)cc2)[nH]c1=O | - | Y181I | >17.4 |
| C/C=C/CSc1cc(NC(=S)c2ccsc2C)ccc1Cl | - | RT-L100I | 1.27 |
| Cc1c(Cc2c(F)cccc2F)nc(Sc2ccccc2)[nH]c1=O | - | RT-K103N | >12.5 |
| CCNc1cccnc1N1CCN(C(=O)c2cc3cc4c(cc3[nH]2)OCO4)CC1 | IIIB | RT-Y181C | 45 |
| Cc1c(Cc2c(Cl)cccc2Cl)nc(Sc2ccc(F)cc2F)[nH]c1=O | - | RT-K103N | >40 |
| O=P(O)(O)OP(=O)(O)O | - | RT-H208Y | 2.2 |
| CC(C)Nc1cccnc1N1CCN(C(=O)c2cc3cc4c(cc3[nH]2)OCO4)CC1 | IIIB | RT-P236L | 19.8 |
| Cc1c(Sc2ccccc2)n(COCCO)c(=O)[nH]c1=O | - | RT-V108I | 2 |
| CCOc1ccccc1N1CCN(C(=O)c2cc3ccccc3[nH]2)CC1 | IIIB | RT-Y181C | >6 |
| CCc1c(Sc2ccccn2)n(COCc2ccccc2)c(=O)[nH]c1=O | - | RT-Y188H | 1 |
| CCOc1ccccc1N1CCN(C(=O)c2cc3cc4c(cc3[nH]2)OCO4)CC1 | IIIB | RT-P236L | 20.7 |
| Cc1c(Cc2c(F)cccc2F)nc(Sc2ccc(Cl)cc2)[nH]c1=O | - | RT-K103N | >18 |

Repeating the final 2 entries:

smiles,strain or isolate,mutations,value
CCOc1ccccc1N1CCN(C(=O)c2cc3cc4c(cc3[nH]2)OCO4)CC1,IIIB,RT-P236L,20.7
Cc1c(Cc2c(F)cccc2F)nc(Sc2ccc(Cl)cc2)[nH]c1=O,-,RT-K103N,>18